Results reported in the supplement of paper PMC9931576.
Human monoclonal antibodies against the spike receptor-binding domain (heavy:light variable regions). IC50 against pseudoviruses bearing the spike of naturally observed variants; lower = stronger; >10 µg/ml means not reached at the top dose. No active / inactive call. The stated detection limit is 0.0005 µg/ml; values near or below 0.001 µg/ml lie at the floor of the assay.

B1: BD55-5895 (protein)
chain 1: QLQLQESGPGLVKPSETLSLTCTVSGGSISSSSYYWGWIRQPPGKGLEWIGSLDYSGSTYYNPSLNNRVTISVDTSKNQFSLNLYSVTAADTAVYYCARSIAAPGTLDWFDPWGQGTLVTVSS
chain 2: QSVLTQPPSVSGAPGQRVTISCTGSSSNIGAGYDVHWYQQLPGTAPKLLIYGYTNRPSGVPDRFSGSKSGTSASLAITGLQAEDEADYYCQSYDSSLSGWVFGGGTKLTVL
B2: BD55-5896 (protein)
chain 1: QVQLVQSGAEVKKPGSSVKVSCKASGGTISRDGIVWVRQAPGQGLEWMGGIIPIYGTTDYAQKFQRKVTITADKSTSTAYMELSSLRSEDTALYYCARARRYDILTAPGTFDIWGQGTMVTVSS
chain 2: SSELTQDPAVSVALGQTVRITCHGDSLRSFYASWYQQKAGQAPVLVISDENNRPSGVPDRFSGSSSGNTASLTITGAQAEDEADYYCNSRDISGNHLVFGGGTKLTVL
B3: BD55-5898 (protein)
chain 1: QVQLVQSGAEVKKPGASVKVSCKASGYTFTTYDINWVRQATGQRPEWMGWMNPNSGNTGYAHNFQGRVTMTRNTSISTAYMELSSLRSEDTAVYYCARGLSSTSYYYYAMDVWGQGTTVTVSS
chain 2: DIQMTQSPSSLSASVGDRVTITCRASQSISYYLNWYQQKPGKAPKLLIYTASSLQSGVPSRFSGSGSGTDFTLTISSLQPEDFATYFCQQSYSTPGTFGQGTKVEIK
B4: BD55-1117 (protein)
chain 1: EVQLVESGGVAVQPGGSLRLSCAGSGFTFDDYTMHWVRQPPGKGLEWVSLITWDGYTTHYADSVKGRFTISRDNSKNALYLQMNSLRTDDTALYYCAKDTHGGITTSWFWGQGTLVTVSS
chain 2: QSGLTQPPSVSATPGQKVTISCSGGSSNIGKNYVSWYQHLPGTAPKLLIYDNYKRPSGIPDRFSGSKSGTSATLTITGLQTGDEADYYCGSWDTSLFVVLLGGGTKVTVL
B5: BD55-5904 (protein)
chain 1: QVQLVQSGAEVKKPGSSLKVSCKASGGTFSTYVISWVRQAPGQGLEWLGEIIPILDIANYAQGFQGRVTITADKATNTAYMELSSLRSEDTAVYYCARAQIVDILMAYNPVYYYGMDVWGQGTTVTVSS
chain 2: DIQLTQSPSFLSASVGDRVTITCRASQGISSYLAWYQQKPGKVPKLLIYAASTLQSGVPSRFSGSGSGTEFTLTISSLQPEDFATYYCQQLNSYPLTFGGGTKVEIK
B6: BD55-5912 (protein)
chain 1: QVQLQQWGAGLLKPSEALSLTCAVYGESFSGYYWSWIRQPPGKGLEWIGEINHSGSTNYNPSLKSRVTISVHTSKNQFSLRLSSVTAADTAVYYCATGDSSSFWHAFDIWGQGTMVTVSS
chain 2: DIVMTQSPDSLAVSLGERATINCKSSQSVLYSSNNKNYLGWYQQKPGQPPKLLISWASTRESGVVDRFSGSGSGTDFTLTISSLQAEDVAVYYCQQYYSSPLTFGQGTKVEIK
B7: BD55-5913 (protein)
chain 1: QVQLVQSGAEVKKPGASVKVSCKASAYTFTNFDVNWVRQAAGQGLEWMGWMNPNSGNTGYSHKFQGRVAMTRNISISTAYMELSSLKSEDTAVYYCAIHFNSQHSYYYYTMDVWGQGTTVIVSS
chain 2: DIQMTQSPSSLSASVGDRVTITCRASQTISYYCNWYQQKPGKAPKLLIYAASTLQSGVPSRFSGSGSGTDFTLTISSLQPEDFATYYCQESYSTPPSFGQGTKVEIK
B8: BD55-5917 (protein)
chain 1: QVQLQESGPGLVKSSETLSLTCTVSGGSVNFYYWSWIRQPPGRGLEWIGFIHSSGSANYNPSLKSRVTISVDTSKDQFSLKLRSVTAADTAVYYCASYGGQGYNWLDPWGQGALVTVSS
chain 2: QSVLTQPPSVSAAPGQKVTISCSGSSSNIGNNFVSWYQQLPGTAPKLLIYDNTKRPSGIPDRFSGSKSGTSATLGITGLQTGDEADYYCGTWDSSLSAVIFGGGTKLTVL
B9: BD55-5918 (protein)
chain 1: QVQLVQSGAEAKKPGSSVKVSCKASGGTFNNYAINWVRQAPGQGLEWMGRIIPILDIPNYAQNFQGRVTFTADKFTGTAYMELSSLRSEDTAVFYCATSAYESSYSSSAYPLDYWGQGSLVTVSS
chain 2: DIQMTQSPSSLSASVGDRVTITCRASQTISNYLHWYQQQPGKAPRLLIYAASSLQGGVPSRFSGSGSGTEFTLTISSLHPEDFATYYCQQTYSAPRTFGQGTKVEFK
B10: BD55-5919 (protein)
chain 1: QVQLVQSGAEVKKPGASVKVSCKVSGNTLRELSIYWVRQAPGKGLEWMGGFDPEDGKTIYAQKFQGRVIMTEDTSTDTAYMELSSLRSEDTAMYYCATAPRYSGYDYFYYYNGMDVWGQGTTVTVSS
chain 2: DIQMTQSPPSLSASVGDRVTITCRASQGISNHLAWFQQKPGKAPKPLVYAASSLQSGVPSKFSGSGSGTDFTLTISSLQPEDFATYYCQQYNSYPRTFGGGTKVEIK
B11: BD55-5920 (protein)
chain 1: EVQLLESGGGLVQPGGSLGLSCAASGFTFSTYAMGWVRQAPGKGLEWVSGITYSGESTYYADSVKGRFTISRDNSKNTLYLHMNSLRADDTAIYYCAKVPARIAVVGSVYYFDYWGQGTLVTVSS
chain 2: QSALTQPASVSGSPGQSITISCAGTSSDVGVYNYVSWYQQHPGKAPKLMIYDVTKRPSGVSNRFSGSKSGNTASLTISGLQADDEADYYCSSYASSSTLVFGGGTKLTVL
B12: BD55-5924 (protein)
chain 1: QVQLQESGPGLVKPSETLSLTCTVSGGSINTDYWSWIRQPAGKGLEWIGRIYASGSPSYNPSLNSRITMSVDTSRNQFSLKLNSVTAADTAVYFCAREKHYYDDSGYYHYFFDFWGQGTVVTVSS
chain 2: IQMTQSPSSLSASVGDRVTITCRASQGIANYLAWFQLKPGKAPKSLIYAASALHTGVPSKFSGSGSGTDFNLTISSLQPEDFATYYCQQYTGYPPTFGQGTKVEVK

What follows are binders tested against SARS-CoV-2 Omicron BA.1 spike pseudovirus (assay: pseudovirus neutralization IC50; higher = weaker neutralization).
Procedure: (§1)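 Single-round VSV luciferase pseudovirus mixed with antibody dilutions for 1 h and put on Huh-7 cells for about a day; IC50 from the dose curve.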

Compared with B1, B2 is higher in “pseudovirus neutralization IC50” value: 0.00987 µg/mL for the first, > 10 µg/mL for the second.

Going from B3 to B4, the “pseudovirus neutralization IC50” value falls from > 10 µg/mL to 0.349 µg/mL.

Compared with B5, B6 is lower in “pseudovirus neutralization IC50” value: > 10 µg/mL for the first, 0.481 µg/mL for the second.

B7 and B8 cannot be ordered by “pseudovirus neutralization IC50” value: > 10 µg/mL for the first, > 10 µg/mL for the second.

B9 and B10 cannot be ordered by “pseudovirus neutralization IC50” value: > 10 µg/mL for the first, > 10 µg/mL for the second.

B11 and B12 cannot be ordered by “pseudovirus neutralization IC50” value: > 10 µg/mL for the first, > 10 µg/mL for the second.

The binders below were run against SARS-CoV-2 Omicron BA.2 spike pseudovirus in the same assay as above.
Procedure: as §1

Compared with B1, B2 is higher in “pseudovirus neutralization IC50” value: 0.0141 µg/mL for the first, > 10 µg/mL for the second.

B3 and B4 cannot be ordered by “pseudovirus neutralization IC50” value: > 10 µg/mL for the first, > 10 µg/mL for the second.

Going from B5 to B6, the “pseudovirus neutralization IC50” value falls from > 10 µg/mL to 0.458 µg/mL.

B7 and B8 cannot be ordered by “pseudovirus neutralization IC50” value: > 10 µg/mL for the first, > 10 µg/mL for the second.

B9 and B10 cannot be ordered by “pseudovirus neutralization IC50” value: > 10 µg/mL for the first, > 10 µg/mL for the second.

B11 and B12 cannot be ordered by “pseudovirus neutralization IC50” value: > 10 µg/mL for the first, > 10 µg/mL for the second.

The binders below were run against SARS-CoV-2 Omicron BA.2.75 spike pseudovirus in the same assay as above.
Procedure: as §1

First: B1
Second: B2
The “pseudovirus neutralization IC50” value of the first is lower: 0.0128 µg/mL for the first, > 10 µg/mL for the second.

B3 and B4 cannot be ordered by “pseudovirus neutralization IC50” value: > 10 µg/mL for the first, > 10 µg/mL for the second.

Going from B5 to B6, the “pseudovirus neutralization IC50” value falls from > 10 µg/mL to 0.0957 µg/mL.

B7 and B8 cannot be ordered by “pseudovirus neutralization IC50” value: > 10 µg/mL for the first, > 10 µg/mL for the second.

B9 and B10 cannot be ordered by “pseudovirus neutralization IC50” value: > 10 µg/mL for the first, > 10 µg/mL for the second.

B11 and B12 cannot be ordered by “pseudovirus neutralization IC50” value: > 10 µg/mL for the first, > 10 µg/mL for the second.

These binders were tested against SARS-CoV-2 Omicron BA.5 spike pseudovirus in the same assay as above.
Procedure: as §1

Going from B1 to B2, the “pseudovirus neutralization IC50” value rises from 1.17 µg/mL to > 10 µg/mL.

B3 and B4 cannot be ordered by “pseudovirus neutralization IC50” value: > 10 µg/mL for the first, > 10 µg/mL for the second.

B5 and B6 cannot be ordered by “pseudovirus neutralization IC50” value: > 10 µg/mL for the first, > 10 µg/mL for the second.

B7 and B8 cannot be ordered by “pseudovirus neutralization IC50” value: > 10 µg/mL for the first, > 10 µg/mL for the second.

B9 and B10 cannot be ordered by “pseudovirus neutralization IC50” value: > 10 µg/mL for the first, > 10 µg/mL for the second.

B11 and B12 cannot be ordered by “pseudovirus neutralization IC50” value: > 10 µg/mL for the first, > 10 µg/mL for the second.

The binders below were run against SARS-CoV-2 Omicron BQ.1.1 spike pseudovirus in the same assay as above.
Procedure: as §1

B1 and B2 cannot be ordered by “pseudovirus neutralization IC50” value: > 10 µg/mL for the first, > 10 µg/mL for the second.

B3 and B4 cannot be ordered by “pseudovirus neutralization IC50” value: > 10 µg/mL for the first, > 10 µg/mL for the second.

B5 and B6 cannot be ordered by “pseudovirus neutralization IC50” value: > 10 µg/mL for the first, > 10 µg/mL for the second.

B7 and B8 cannot be ordered by “pseudovirus neutralization IC50” value: > 10 µg/mL for the first, > 10 µg/mL for the second.

B9 and B10 cannot be ordered by “pseudovirus neutralization IC50” value: > 10 µg/mL for the first, > 10 µg/mL for the second.

B11 and B12 cannot be ordered by “pseudovirus neutralization IC50” value: > 10 µg/mL for the first, > 10 µg/mL for the second.

The binders below were run against SARS-CoV-2 Omicron XBB spike pseudovirus in the same assay as above.
Procedure: as §1

B1 and B2 cannot be ordered by “pseudovirus neutralization IC50” value: > 10 µg/mL for the first, > 10 µg/mL for the second.

B3 and B4 cannot be ordered by “pseudovirus neutralization IC50” value: > 10 µg/mL for the first, > 10 µg/mL for the second.

B5 and B6 cannot be ordered by “pseudovirus neutralization IC50” value: > 10 µg/mL for the first, > 10 µg/mL for the second.

B7 and B8 cannot be ordered by “pseudovirus neutralization IC50” value: > 10 µg/mL for the first, > 10 µg/mL for the second.

B9 and B10 cannot be ordered by “pseudovirus neutralization IC50” value: > 10 µg/mL for the first, > 10 µg/mL for the second.

B11 and B12 cannot be ordered by “pseudovirus neutralization IC50” value: > 10 µg/mL for the first, > 10 µg/mL for the second.

The binders below were run against SARS-CoV-2 early D614G spike pseudovirus in the same assay as above.
Procedure: as §1

First: B1
Second: B2
The “pseudovirus neutralization IC50” value of the first is lower: 0.00316 µg/mL for the first, > 10 µg/mL for the second.

Compared with B3, B4 is lower in “pseudovirus neutralization IC50” value: > 10 µg/mL for the first, 0.487 µg/mL for the second.

Compared with B5, B6 is lower in “pseudovirus neutralization IC50” value: > 10 µg/mL for the first, 0.0205 µg/mL for the second.

Going from B7 to B8, the “pseudovirus neutralization IC50” value falls from > 10 µg/mL to 0.00204 µg/mL.

First: B9
Second: B10
The “pseudovirus neutralization IC50” value of the first is lower: 0.0018 µg/mL for the first, > 10 µg/mL for the second.

Going from B11 to B12, the “pseudovirus neutralization IC50” value rises from 0.544 µg/mL to > 10 µg/mL.
